Results published in the supplement of paper PMC9931576.
Human monoclonal antibodies against the spike receptor-binding domain (heavy:light variable regions). IC50 against pseudoviruses bearing the spike of naturally observed variants; lower = stronger; >10 µg/ml means not reached at the top dose. No active / inactive call. The stated detection limit is 0.0005 µg/ml; values near or below 0.001 µg/ml lie at the floor of the assay.

Experiments:
Test in all cases: pseudovirus neutralization IC50; higher = weaker neutralization
[1] = molecular target: SARS-CoV-2 Omicron BQ.1.1 spike pseudovirus
Protocol: (§1)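 Single-round VSV luciferase pseudovirus mixed with antibody dilutions for 1 h and put on Huh-7 cells for about a day; IC50 from the dose curve.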

[2] = molecular target: SARS-CoV-2 Omicron XBB spike pseudovirus
Protocol: as §1

[3] = molecular target: SARS-CoV-2 Omicron BA.1 spike pseudovirus
Protocol: as §1

[4] = molecular target: SARS-CoV-2 Omicron BA.2 spike pseudovirus
Protocol: as §1

[5] = molecular target: SARS-CoV-2 Omicron BA.2.75 spike pseudovirus
Protocol: as §1

[6] = molecular target: SARS-CoV-2 Omicron BA.2.75.2 spike pseudovirus
Protocol: as §1

[7] = molecular target: SARS-CoV-2 Omicron BA.5 spike pseudovirus
Protocol: as §1

[8] = molecular target: SARS-CoV-2 Omicron BM.1.1.1 spike pseudovirus
Protocol: as §1

[9] = molecular target: SARS-CoV-2 Omicron BR.2 spike pseudovirus
Protocol: as §1

[10] = molecular target: SARS-CoV-2 Omicron CA.1 spike pseudovirus
Protocol: as §1

[11] = molecular target: SARS-CoV-2 early D614G spike pseudovirus
Protocol: as §1

B1: XG-017 (protein)
chain 1: EVQLVESGGGLVQPGGSLRLSCAASGIIVSRNYMTWVRQAPGKGLEWVSVIYSGGSTFYADSVKGRFTISRDNSKNTLYLQMNSLRAEDTAVYYCARGEGWDLPFDFWGQGTLVSVSS
chain 2: QSALTQPPSASGSPGQSVTISCTGTSSDVGGYNYVSWYQQEPGKAPKLMIYEVSKRPSGVPDRFSGSKSGNTASLTVSGLQAEDEAAYYCSSYAGSNNLMFGGGTKLTVL
[1]
  pseudovirus neutralization IC50: > 10 µg/mL
[2]
  pseudovirus neutralization IC50: > 10 µg/mL

B2: BD56-274 (protein)
chain 1: QVQLQESGPGLVKPSGTLSLTCAVSGGSISSSHWWSWVRQPPGKGLEWIGEIYPSGSTNYNPSLKSRVTISVDKSKNQFSLKLSSVTAADTAVYYCARIHYFDGSGYQNPYDAFDIWGQGTMVTVSS
chain 2: QSALTQPASVSGSPGQSITISCTGTSSDVGGYNFVSWYQQHPDKAPKLIIYDVIERPSGVSNRFSGSKSGNTASLTISGLQAEDEADYYCSSYTTSSILFGGGTKLTVL
[3]
  pseudovirus neutralization IC50: 0.000785 µg/mL
[4]
  pseudovirus neutralization IC50: 0.0011 µg/mL
[5]
  pseudovirus neutralization IC50: 1.06 µg/mL
[6]
  pseudovirus neutralization IC50: > 10 µg/mL
[7]
  pseudovirus neutralization IC50: > 10 µg/mL
[8]
  pseudovirus neutralization IC50: > 10 µg/mL
[1]
  pseudovirus neutralization IC50: > 10 µg/mL
[9]
  pseudovirus neutralization IC50: > 10 µg/mL
[10]
  pseudovirus neutralization IC50: > 10 µg/mL
[2]
  pseudovirus neutralization IC50: > 10 µg/mL
[11]
  pseudovirus neutralization IC50: > 10 µg/mL

B3: BD56-894 (protein)
chain 1: QVQLQESGPGLVKPSQTLSLTCTVSGGSISSGDYYWNWIRQPPGKSLEWIGYIYYSGSTYYNPSLKSRVTISVDTSKNQFSLKLSSVTAADTAVYYCARDSEYDILTGYGHWYFDLWGRGTLVTVSS
chain 2: QSALTQPASVSGSPGQSITISCTGTSSDVGTYTLVSWYQQHPGKAPKLMIYEVSKRPSGVSNRFSGSKSGNTASLKISGLQAEDEADYYCCSYVSSSPVFGGGTKLTVL
[3]
  pseudovirus neutralization IC50: 0.00897 µg/mL
[4]
  pseudovirus neutralization IC50: > 10 µg/mL
[5]
  pseudovirus neutralization IC50: > 10 µg/mL
[6]
  pseudovirus neutralization IC50: > 10 µg/mL
[7]
  pseudovirus neutralization IC50: > 10 µg/mL
[8]
  pseudovirus neutralization IC50: > 10 µg/mL
[1]
  pseudovirus neutralization IC50: > 10 µg/mL
[9]
  pseudovirus neutralization IC50: > 10 µg/mL
[10]
  pseudovirus neutralization IC50: > 10 µg/mL
[2]
  pseudovirus neutralization IC50: > 10 µg/mL
[11]
  pseudovirus neutralization IC50: > 10 µg/mL

B4: BD56-273 (protein)
chain 1: QVQLQESGPGLVKPSGTLSLTCAVSGGSISSSNWWSWVRQPPGKGLEWIGEIYHSGYTNYNPSLKSRVTISVDKSKNQFSLKLSSVTAADTAVYYCARDLGHTYTYYFDYWGQGTLVTVSS
chain 2: QSALTQPASVSGSPGQSITISCTGTSSDITGYNYVSWYQQHPGKAPKLMIYDVSDRPSGVPDRFSGSKSGNTASLTISGLQAEDEADYYCSSYTSSSTPVVFGGGTKLTVL
[3]
  pseudovirus neutralization IC50: 0.00134 µg/mL
[4]
  pseudovirus neutralization IC50: 0.00252 µg/mL
[5]
  pseudovirus neutralization IC50: 0.00378 µg/mL
[6]
  pseudovirus neutralization IC50: 0.00808 µg/mL
[7]
  pseudovirus neutralization IC50: 0.939 µg/mL
[8]
  pseudovirus neutralization IC50: 1.19 µg/mL
[1]
  pseudovirus neutralization IC50: > 10 µg/mL
[9]
  pseudovirus neutralization IC50: 1.28 µg/mL
[10]
  pseudovirus neutralization IC50: 1.23 µg/mL
[2]
  pseudovirus neutralization IC50: 1.27 µg/mL
[11]
  pseudovirus neutralization IC50: > 10 µg/mL

B5: BD56-893 (protein)
chain 1: EVQLVESGGGLVQPGRSLRLSCAASGFTFDDYAMHWVRQAPGKGLEWVSSISWNTGSIGYADSVKGRFTISRDNAKNSLYLQMNSLRAEDTALYYCAKDLSYCSDDSCYSGAPYYYGMDVWGQGTTVTVSS
chain 2: DIQMTQSPSSLSASVGDRVTITCQASQDISNYLNWYQQKPGKAPNLLIYDASNLETGVPSRFSGSGSGTDFTFTISSLQPEDIATYYCQQSDNLPLTFGGGTKVEIK
[3]
  pseudovirus neutralization IC50: 0.0103 µg/mL
[4]
  pseudovirus neutralization IC50: 0.00382 µg/mL
[5]
  pseudovirus neutralization IC50: > 10 µg/mL
[6]
  pseudovirus neutralization IC50: > 10 µg/mL
[7]
  pseudovirus neutralization IC50: > 10 µg/mL
[8]
  pseudovirus neutralization IC50: > 10 µg/mL
[1]
  pseudovirus neutralization IC50: > 10 µg/mL
[9]
  pseudovirus neutralization IC50: > 10 µg/mL
[10]
  pseudovirus neutralization IC50: > 10 µg/mL
[2]
  pseudovirus neutralization IC50: > 10 µg/mL
[11]
  pseudovirus neutralization IC50: > 10 µg/mL

B6: BD-599 (protein)
chain 1: EVQLVESGGGLVQPGGSLRLSCAASGFTVSRNYMSWVRQAPGKGLEWVSVIYSGGTTHYADSVKGRFTISRHNSKNTLYLQMNSLRAEDTAVYYCARDLVVYGMDVWGQGTTVTVSS
chain 2: DIQLTQSPSFLSASVGDRVTITCRASQGISSYLAWYQQKPGKAPKLLIYAASTLQSGVPSSFSGSGSGTEFTLTISSLQPEDFATYYCQQLNSYPLTFGGGTKVEIK
[11]
  pseudovirus neutralization IC50: 0.15 µg/mL

B7: BD56-880 (protein)
chain 1: QVQLVQSGAEVKKPGSSVKVSCKASGGAFSSYAISWVRQAPGQGLEWMGGIIPIFGTANYAQKFQGRVTMTADESTSTVYMDLSSLRSEDTAVYYCVREGGGSYLGDHYYYGMDVWGQGTTVTVSS
chain 2: QSVLTQPPSVSGAPGQRVTISCTGSSSNIGADYDVHWYQQLPGTAPKLLIYGNSNRPSGVPDRFSGSKSGTSASLAITGLQAEDEADYYCQSYDSSLSGSKVFGTGTKVTVL
[3]
  pseudovirus neutralization IC50: 0.00513 µg/mL
[4]
  pseudovirus neutralization IC50: > 10 µg/mL
[5]
  pseudovirus neutralization IC50: > 10 µg/mL
[6]
  pseudovirus neutralization IC50: > 10 µg/mL
[7]
  pseudovirus neutralization IC50: > 10 µg/mL
[8]
  pseudovirus neutralization IC50: > 10 µg/mL
[1]
  pseudovirus neutralization IC50: > 10 µg/mL
[9]
  pseudovirus neutralization IC50: > 10 µg/mL
[10]
  pseudovirus neutralization IC50: > 10 µg/mL
[2]
  pseudovirus neutralization IC50: > 10 µg/mL
[11]
  pseudovirus neutralization IC50: > 10 µg/mL
